Compound potency records, mixed from different reports. Data source: NIAID ChemDB in PubChem.

Common to all: tests in culture; agent: Mycobacterium tuberculosis

Blank or dashed fields: not listed here. Lines come from different laboratories, so protocols vary. ECn is the concentration giving n% inhibition of infection, replication or growth. MIC bound comes from a single tested concentration. Percent inhibition refers to the dose given; in toxicity tests it is the harm to the cells.

SMILES | strain or isolate | changes | dose | method | setting | read-out | result
Cc1ccc(S(=O)(=O)NC(=O)Nc2c(-c3nc4ccccc4s3)[n+]([O-])c3ccccc3[n+]2[O-])cc1 | H37Rv |  |  | BACTEC |  | MIC | ≥12.5 µg/mL
O=C(/C=C/c1ccccc1)c1cc(Br)ccc1O |  |  |  |  |  | EC50 | <12.5 µg/mL
Cc1ccc(S(=O)(=O)C(CC(=O)c2ccccn2)c2ccccc2)cc1 | H37Rv |  |  |  |  | MIC | >100 µg/mL
C[C@H]1COc2c(N3CCN(C)CC3)c(F)cc3c(=O)c(C(=O)O)cn1c23 | Isolate 7 |  |  |  |  | MIC | 4 µg/mL
O=c1oc2ccc(Br)cc2c(=S)n1-c1cccc(Cl)c1 | My 331/88 |  |  |  | 14 d | MIC | 0.5 µM
O=C1CC(c2ccc(Cl)cc2)Oc2ccccc21 | H37Rv |  |  |  |  | EC50 | >12.5 µg/mL
Cn1cc(NC(=O)c2cc(NC(=O)CCCCCCCC(=O)Nc3cc(C(=O)Nc4cc(C(=O)NCCC(N)=[NH2+])n(C)c4)n(C)c3)cn2C)cc1C(=O)NCCC(N)=[NH2+] | H37Rv |  |  | BACTEC |  | MIC | 1.6 µg/mL
O=S1(=O)CC=CC1 | H37Rv |  |  |  |  | MIC | >100 µg/mL
O=S(=O)(c1ccccc1)N1c2ccccc2Sc2ccccc21 | H37Rv |  | 12.5 µg/mL | BACTEC |  | inhibition | -41%
O=C(Nc1ccccn1)c1cccnc1 | H37Rv |  |  |  |  | MIC | >100 µg/mL
CO[C@H]1/C=C/O[C@@]2(C)Oc3c(C)c(O)c4c(O)c(c5c(c4c3C2=O)NC2(CCN(CC(C)C)CC2)N=5)=NC(=O)/C(C)=C\C=C\[C@H](C)[C@H](O)[C@@H](C)[C@@H](O)[C@@H](C)[C@H](OC(C)=O)[C@@H]1C | Strain 152-162 (H526R/P/Y/D) |  |  |  |  | MIC | 48 µg/mL
O=C(/C=C/c1cc2ccccc2c2ccccc12)c1cccc(O)c1 | H37Rv |  |  |  |  | EC50 | <12.5 µg/mL
Cc1nnc2sc(=S)[nH]n12 | H37Rv |  | 128 µg/mL | BACTEC |  | inhibition | 96%
O=C(O)CC1=CC(=O)OC1=O | H37Rv |  |  |  |  | MIC | >100 µg/mL
O=C1CC(c2ccc(Br)cc2)Oc2ccccc21 | H37Rv |  | 12.5 µg/mL |  |  | inhibition | 26%
CNNC1=NS(=O)(=O)c2cc(C#N)c(Cl)cc2S1 | H37Rv |  |  | resazurin |  | MIC bound | >6.25 µg/mL
O=[N+]([O-])c1ccc(-c2ccccn2)cc1 | H37Rv |  |  |  |  | MIC | 50 µg/mL
NNC(=O)[C@H](O)[C@@H](O)[C@@H](O)[C@H](O)CO | H37Rv |  |  | resazurin |  | MIC bound | >6.25 µg/mL
CCCCCc1cc(OC)c2ccccc2n1 | MT7 |  |  |  |  | MIC | 6.25 µg/mL
NCC[C@H](O)C(=O)N[C@@H]1C[C@H](N)[C@@H](O[C@H]2O[C@H](CN)[C@@H](O)[C@H](O)[C@H]2O)[C@H](O)[C@H]1O[C@H]1O[C@H](CO)[C@@H](O)[C@H](N)[C@H]1O | 5S |  |  |  |  | MIC | 2.5 µg/mL
CCCCC(CC)CN1CN(CC(CC)CCCC)CC(C)(NCCNCCc2ccccc2OC)C1 |  |  |  |  |  | MIC | 12.5 µM
CCCCCCCCCCCNCCNCc1ccccc1F |  |  |  |  |  | MIC | 25 µM
NNC(=O)CCn1[nH]c(=O)c(Cl)c(Cl)c1=O | H37Rv |  | 12.5 µg/mL | BACTEC |  | inhibition | 3%
CCCCC(CC)CN1CN(CC(CC)CCCC)CC(C)(NCCNC(C)CC)C1 |  |  |  |  |  | MIC | 6.25 µM
CNC(=O)c1ccc(NC(=O)Nc2ccc(C3=NCCN3)cc2)cc1NC(=O)Nc1cccc(C2=NCCN2)c1 | H37Rv |  |  | BACTEC |  | MIC bound | ≤12.5 µg/mL
O=C(O)c1cc2ccccc2c(-c2c(O)c(C(=O)O)cc3ccccc23)c1O | H37Rv |  |  |  |  | MIC | 50 µg/mL
CC[C@@H](CO)NCCN[C@@H](CC)CO | MDR4 |  |  | broth dilution / resazurin |  | MIC | 16 µg/mL
O=C(O)c1ccccc1Br | H37Rv |  |  |  |  | MIC | 100 µg/mL
CN1c2ccccc2CCC1CCc1ccc2c(c1)OCO2 | MT7 |  |  |  |  | MIC | 50 µg/mL
CN[C@@H]1[C@H](O[C@H]2[C@H](O[C@H]3[C@H](O)[C@@H](O)[C@H](N=C(N)N)[C@@H](O)[C@@H]3N=C(N)N)O[C@@H](C)[C@]2(O)C=O)O[C@@H](CO)[C@H](O)[C@H]1O | Isolate 2 |  |  |  |  | MIC | 8 µg/mL
O=C1CCCN1CCCNCCNCc1ccccc1Sc1ccccc1CO |  |  |  |  |  | MIC | 12.5 µM
COc1c(N2CCNC(C)C2)c(F)cc2c(=O)c(C(=O)O)cn(C3CC3)c12 | Strain 325 |  |  |  |  | MIC | 0.5 µg/mL
c1ccc2c(c1)ccc1c2nc2c3ccccc3[nH]n12 | H37Rv |  |  | BACTEC |  | MIC | 0.39 µg/mL
COc1ccc(C2Oc3cc(F)ccc3C(=O)C2OC(C)=O)cc1 |  |  |  |  |  | EC50 | 12.5 µg/mL
c1ccc(C(CCNCCNCC23CC4CC(CC(C4)C2)C3)c2ccccc2)cc1 |  |  |  |  |  | MIC | 6.25 µM
O=C(Oc1ccc(C(=O)c2ccccc2OC(=O)c2ccccc2O)cc1)c1ccccc1O | H37Rv |  |  |  |  | MIC | >100 µg/mL
CN[C@@H]1[C@H](O[C@H]2[C@H](O[C@H]3[C@H](O)[C@@H](O)[C@H](N=C(N)N)[C@@H](O)[C@@H]3N=C(N)N)O[C@@H](C)[C@]2(O)C=O)O[C@@H](CO)[C@H](O)[C@H]1O | TN3806 (W1) |  |  |  |  | MIC | >2 µg/mL
CCN(CC)Cc1cc(O)c(CN(CC)CC)cc1O | H37Rv |  |  |  |  | MIC | >100 µg/mL
CCCCCNCCNCCC1=CCCCC1 |  |  |  |  |  | MIC | 25 µM
CC(=O)NC[C@H]1CN(c2ccc(N3CCOCC3)c(F)c2)C(=O)O1 | Clinical isolate 109 | INH RIF resistant |  | resazurin |  | MIC | 0.25 µg/mL
CC12CC[C@H](C(=O)OC1=O)C2(C)C | H37Rv |  | 6.25 µg/mL | resazurin |  | inhibition | -17%
C[C@H](NCCNCC(c1ccccc1)c1ccccc1)C1CCCCC1 |  |  |  |  |  | MIC | 25 µM
NNC(=O)c1ccncc1 | 8S |  |  |  |  | MIC | 0.1 µg/mL
NC(=O)c1cnccn1 | Isolate 10274 |  |  |  |  | MIC | 100 µg/mL
CCOC(=O)C1=C(Nc2ccc(Cl)cc2)C(=O)N(C(C)(C)C)C1 | H37Rv |  |  | BACTEC |  | MIC | ≥12.8 µg/mL
O=S(=O)(Nc1nccs1)c1cccnc1 | H37Rv |  |  |  |  | MIC | >100 µg/mL
CC(=O)NC[C@H]1CN(c2ccc(N3CCOCC3)c(F)c2)C(=O)O1 | Strain 328 |  |  |  |  | MIC | 0.25 µg/mL
Clc1ccccc1CCNCCNC(c1ccccc1)c1ccccc1 |  |  |  |  |  | MIC | 50 µM
C[N+](C)(C)CCCCOc1ccccc1.[I-] | H37Rv |  |  |  |  | MIC | >100 µg/mL
FC(F)(F)c1ccc(CNCCNCCN2CCOCC2)cc1 |  |  |  |  |  | MIC | 50 µM
[N-]=[N+]=CC(=O)CC[C@H](NC(=O)OCc1ccccc1)C(=O)OCc1ccccc1 | H37Rv |  |  | resazurin |  | MIC | 0.78 µg/mL
Nc1ccc2nc(-c3ccc(O)cc3)c(-c3ccc(O)cc3)nc2c1 | H37Rv |  |  |  |  | MIC | >100 µg/mL
C=CCNc1nc(NC(=O)OCC)cc(N)c1[N+](=O)[O-] | H37Rv |  | 12.5 µg/mL |  |  | inhibition | 0%
CO[C@H]1/C=C/O[C@@]2(C)Oc3c(C)c(O)c4c(=O)c(c5oc6cc(N7CCN(C(C)C)CC7)cc(=O)c6nc5c4c3=C2O)NC(=O)/C(C)=C\C=C\[C@H](C)[C@H](O)[C@@H](C)[C@@H](O)[C@@H](C)[C@H](OC(C)=O)[C@@H]1C | 27 (rifampin-resistant) |  |  |  |  | MBC | 0.2 µg/mL
CC(CNCCNCCc1ccc(Cl)cc1Cl)c1ccccc1 |  |  |  |  |  | MIC | 25 µM
Cc1cc(O)ccc1N.Cl | H37Rv |  |  |  |  | MIC | 50 µg/mL
Cc1cccc(/C=N/Nc2cc(C)c3ccccc3n2)n1 | H37Rv |  | 12.5 µg/mL | BACTEC |  | inhibition | 99%
CCCCCCCCCCCNCCNCCC |  |  |  |  |  | MIC | 25 µM
Cl.Nc1cccc2cccc(N)c12 | H37Rv |  |  |  |  | MIC | 3.12 µg/mL
CC(=O)Nc1ccc(/C=C(\NC(=O)c2ccccc2)C(=O)NNS(=O)(=O)c2ccc(C)cc2)cc1 | H37Rv |  | 12.5 µg/mL | BACTEC |  | inhibition | 0%
O=C(/C=C/c1ccccc1)c1ccco1 | H37Rv |  |  |  |  | EC50 | <12.5 µg/mL
CCOC(=O)Nc1cc(NCC(O)CN(C)c2ccc(OC)cc2)c([N+](=O)[O-])c(N)n1 | H37Rv |  | 12.5 µg/mL |  |  | inhibition | 0%
S=c1oc2ccc(Br)cc2c(=S)n1-c1ccccc1 | My 331/88 |  |  |  | 21 d | MIC | 2 µM
Cc1ccc(O)c(O)c1 | H37Rv |  |  |  |  | MIC | 50 µg/mL
CC1CCCC(NCCNC2CCCCCCC2)C1C |  |  |  |  |  | MIC | 25 µM
CO[C@H]1/C=C/O[C@@]2(C)Oc3c(C)c(O)c4c(O)c(c5c(c4c3C2=O)NC2(CCN(CC(C)C)CC2)N=5)=NC(=O)/C(C)=C\C=C\[C@H](C)[C@H](O)[C@@H](C)[C@@H](O)[C@@H](C)[C@H](OC(C)=O)[C@@H]1C | 2624 (rifampin-sensitive) |  |  |  |  | MIC | 0.025 µg/mL
CO[C@H]1/C=C/O[C@@]2(C)Oc3c(C)c(O)c4c(O)c(c(/C=N/N5CCN(C)CC5)c(O)c4c3C2=O)NC(=O)/C(C)=C\C=C\[C@H](C)[C@H](O)[C@@H](C)[C@@H](O)[C@@H](C)[C@H](OC(C)=O)[C@@H]1C | TN1595 |  |  |  |  | MIC | >32 µg/mL
CO[C@H]1/C=C/O[C@@]2(C)Oc3c(C)c(O)c4c(O)c(c(/C=N/N5CCN(C6CCCC6)CC5)c(O)c4c3C2=O)NC(=O)/C(C)=C\C=C\[C@H](C)[C@H](O)[C@@H](C)[C@@H](O)[C@@H](C)[C@H](OC(C)=O)[C@@H]1C | Isolate 900216 drug-susceptible |  |  |  |  | MIC | 0.125 µg/mL
O=C(CCC(=O)Nc1ccc(S(=O)(=O)NCCO)cc1)Nc1ccc(S(=O)(=O)NCCO)cc1 | H37Rv |  |  |  |  | MIC | >100 µg/mL
CCOC(=O)Nc1cc(N[C@@H](C)[C@H](O)c2ccccc2)c(N)c(N)n1 | H37Rv |  |  |  |  | EC50 | >12.5 µg/mL
O=C(/C=C/c1ccc(Br)cc1)c1ccccc1O |  |  |  |  |  | EC50 | <12.5 µg/mL
CSc1cc(NC(C)=O)c2ncccc2c1N | H37Rv |  |  |  |  | MIC | 50 µg/mL
CCCCNC(=O)OCCN=c1c2ccccc2ccc2ccccc12 | H37Rv |  |  | BACTEC |  | MIC bound | >12.5 µg/mL
O=C(O)CNC(=O)c1ccccc1 | H37Rv |  |  |  |  | MIC | >100 µg/mL
CCOC(=O)Nc1cc(NCCc2ccccc2)c(N)c(N)n1 | H37Rv |  |  |  |  | EC50 | <12.5 µg/mL
NC(=O)NC1C(C(N)=O)N(Cc2ccccc2)C(=O)N1Cc1ccccc1 | H37Rv |  |  | BACTEC |  | MIC bound | >12.5 µg/mL
CCCCCNCCNC1(C)CN(CC(CC)CCCC)CN(CC(CC)CCCC)C1 |  |  |  |  |  | MIC | 50 µM
Cc1cc2nc(CC(=O)c3ccncc3)c(=O)[nH]c2cc1C | H37Rv |  | 12.5 µg/mL | BACTEC |  | inhibition | 2%
COc1ccc2oc(=O)n(-c3cccc(Cl)c3)c(=S)c2c1 | My 331/88 |  |  |  | 14 d | MIC | 16 µM
CC(=O)Nc1ccc2c(c1)C(=O)c1ccccc1C2=O | H37Rv |  |  |  |  | MIC | >100 µg/mL
Cc1ccc(S(=O)(=O)NC(CCC(=O)NN)C(=O)O)cc1 | H37Rv |  |  | BACTEC |  | MIC bound | >12.5 µg/mL
NC[C@H]1O[C@H](O[C@H]2[C@H](O)[C@@H](O[C@H]3O[C@H](CO)[C@@H](O)[C@H](N)[C@H]3O)[C@H](N)C[C@@H]2N)[C@H](O)[C@@H](O)[C@@H]1O | Isolate 2 |  |  |  |  | MIC | 32 µg/mL
CC(=O)Oc1ccc([C@H]2Oc3cc(OC(C)=O)cc(OC(C)=O)c3C(=O)[C@@H]2c2c(OC(C)=O)cc(OC(C)=O)c3c(=O)cc(-c4ccc(OC(C)=O)c(OC(C)=O)c4)oc23)cc1 |  |  |  |  |  | EC50 | >12.5 µg/mL
O=C1c2c(Cl)c(Cl)c(Cl)c(Cl)c2C(=O)N1c1ncc([N+](=O)[O-])s1 | H37Rv |  |  | resazurin |  | MIC bound | >6.25 µg/mL
Cc1ccc2oc(=S)n(-c3ccc(Cl)c(Cl)c3)c(=S)c2c1 | My 331/88 |  |  |  | 21 d | MIC | 0.5 µM
CC(=O)C1(C)C(=O)N(c2ccc(F)cc2)C(=O)N1c1ccc(F)cc1 | H37Rv |  | 12.5 µg/mL | BACTEC |  | inhibition | 0%
CCOC(=O)Nc1cc2nncnc2c(NC(=O)OCC)n1 | H37Rv |  | 12.5 µg/mL |  |  | inhibition | 0%
CCC(C)(C)c1ccc(Oc2cccc(C(=O)N(C)c3ccc(O)cc3)c2)cc1 | H37Rv |  |  |  |  | MIC | 100 µg/mL